# According to PMC10694151, “Regulation of the cell division hydrolase RipC by the FtsEX system in Mycobacterium tuberculosis” (Nature Communications, 2023):
# System: Nc1ncnc2c1ncn2[C@@H]1O[C@H](COP(=O)(O)OP(=O)(O)OP(=O)(O)O)[C@@H](O)[C@H]1O
# Assay: purified protein
# Details: pH 8.0; 37.0 °C
row,Substance,Km
1,MtbFtsEX (Mycobacterium tuberculosis H37Rv),200 ± 40 µM
2,MtbFtsEX/RipC (Mycobacterium tuberculosis H37Rv),160 ± 40 µM
